The results in this text go back to US20240389602A1, “LIPOSOME FORMULATIONS FOR PESTICIDE DELIVERY AND METHODS FOR PRODUCING AND USING THE SAME” (published 2024).

For test [1], the system named is fourth instar CEW. Nature of the test: CEW injection assay: Hybrid+2.
Test [2] relates to adult houseflies. Nature of the test: Housefly injection assay: Hybrid+2. The conditions noted are these: injection at dorsal thorax, assessed after 24-hours.
The subject of test [3] is Helicoverpa zea (Corn earworm or CEW). The experiment in a line: Corn earworm (CEW) foliar spray bioassay, first instar: Hybrid+2. Conditions: no surfactant.
Test [4] relates to Popillia japonica (Japanese beetle). The experiment in a line: Japanese beetle foliar spray bioassay: Hybrid+2. Conditions: adult Japanese beetle, day 4, 8 mg/mL Hybrid+2 spray solution, no surfactant.
Test [5] concerns second instar CEW. Nature of the test: Foliar spray bioassay: second instar CEW.
Where [6] appears, read: day 4, 2 mg/mL Hybrid+2 spray solution.
The mark [7] stands for this setting: day 4, 6 mg/mL Hybrid+2 spray solution.
Setting [8] is: day 4, 18 mg/mL Hybrid+2 spray solution.

Broadly, the mortality is the percentage killed. For U+2-ACTX-Hv1a, in test [1] (injection 1146-18344 pmol/g, after 24-hours), the “dead CEW after injection” value is on record as “no dead CEW”. Moreover, the KD50 in test [1] (injection, assessed after 24-hours) turned out to be 6506 pmol/g. For the same substance, the LD50 in test [2] is reported as 137 pmol/g. Further, the results for the leaf defoliation in test [3] (setting [6]), in test [3] (setting [7]) and in test [3] (setting [8]) were 29.8%, 31.6% and 22.8%, respectively. Also, the proportion mortality is 0.06 in test [3] (setting [6]), 0.10 in test [3] (setting [7]) and 0.25 in test [3] (setting [8]). The mortality in test [4] was 16.7%; in test [5] (day 4, 1 ppt Hybrid+2, no surfactant), “zero”; in test [5] (day 4, 3 ppt Hybrid+2, no surfactant) it was “zero”; in test [5] (day 4, 9 ppt Hybrid+2, no surfactant), “zero”. The “percent of leaf eaten” value in test [5] (day 4, 1 ppt of Hybrid+2, no surfactant) is given as 67%.
